Results of unrelated studies side by side (data: NIAID ChemDB).

Shared fields: host cell toxicity; cell line: MT-4; endpoint: CC50

Two numbers with a dash give a range or band.

SMILES,read by,result
O=C1c2ccccc2N(Cc2ccc(Cl)cc2)S(=O)(=O)N1Cc1ccccc1,-,≥250 µM
CC(=O)C(CCCCCCCCCn1c(=O)c(C)cn([C@@H]2O[C@H](CO[Si](C)(C)C(C)(C)C)C3(OS(=O)(=O)C=C3N)[C@H]2O[Si](C)(C)C(C)(C)C)c1=O)C(C)=O,-,235 µM
O=S1(=O)N=C(OCc2ccccc2)c2ccccc2N1Cc1ccccc1,-,100 µM
OC1/C(=C/c2ccc(Cl)c(Cl)c2)CCC/C1=C\c1ccc(Cl)c(Cl)c1,MTT,102 µM
CCOCn1c(C(O)C=C(C)C)c(CC)c(=O)[nH]c1=O,MTT,100 µM
CC(=O)Nc1nc(-c2ccc(S(=O)(=O)N(CC(C)C)C[C@@H](O)[C@H](Cc3ccccc3)NC(=O)O[C@H]3CO[C@H]4OCC[C@H]43)cc2)cs1,MTT,77.6 µM
Cc1nc2ccccc2c(-c2ccc(Cl)cc2)c1[C@H](OC(C)(C)C)C(=O)O,-,48 µM
Cc1ccc(NC(=O)CSc2ncnn2-c2ccc(Cl)cc2Cl)c(Br)c1,MTT,184 µM
CN1C/C(=C\c2ccc(O)c(O)c2)C(=O)/C(=C/c2ccc(O)c(O)c2)C1,MTT,5 µM
O=C1c2ccccc2N(Cc2ccccc2Cl)S(=O)(=O)N1Cc1ccccc1Cl,-,13–19.8 µM
Nc1ccn([C@@H]2O[C@H](CO)[C@@H](F)[C@H]2O)c(=O)n1,-,43 µM
O=C1c2ccccc2N(Cc2ccccc2)S(=O)(=O)N1Cc1ccccc1,-,100 µM
Cc1cc(CNC(=O)c2nc3n(c(=O)c2O)CCN(C)CC3N(C)C(=O)C(=O)N(C)C)ccc1F,microscopy,>1 µM
Cc1cn([C@H]2C[C@H](N=[N+]=[N-])[C@@H](CO)O2)c(=O)[nH]c1=O,MTT,64.1 µM
O=C1/C(=C/c2cc(O)c(O)c(O)c2)CC/C1=C\c1cc(O)c(O)c(O)c1,MTT,180 µM
O=C(NCc1ccc(F)cc1)c1nc2n(c(=O)c1O)CCNC2COCc1ccccc1,microscopy,>1 µM
CCOCn1c(Cc2ccccc2)c(C(C)C)c(=O)[nH]c1=O,MTT,>100 µM
O=C1c2ccccc2N(Cc2ccc(Cl)cc2)S(=O)(=O)N1Cc1ccc(Cl)cc1,-,21.6–22.8 µM
CC(=O)C(CCCCCCn1c(=O)c(C)cn([C@@H]2O[C@H](CO[Si](C)(C)C(C)(C)C)C3(OS(=O)(=O)C=C3N)[C@H]2O[Si](C)(C)C(C)(C)C)c1=O)C(C)=O,-,>250 µM
Nc1ncnc2c1ncn2[C@H]1C=C[C@@H](CO)O1,-,≥100 µM
Cc1cc(/C=C/C#N)cc(C)c1Oc1ccnc(Nc2ccc(CN3CCN(S(=O)(=O)N(C)C)CC3)cc2)n1,MTT,3.07 µM
OC(/C=C/c1ccc(Cl)c(Cl)c1)/C=C/c1ccc(Cl)c(Cl)c1,MTT,121 µM
Cc1cnc(CN2CCn3c(nc(C(=O)NCc4ccc(F)cc4)c(O)c3=O)C2(C)C)o1,microscopy,>1 µM
C#CCOCN1c2ccccc2C(=O)N(Cc2ccccc2)S1(=O)=O,-,26.2–29.6 µM
O=C(NCc1ccc(F)cc1)C1C(=O)N(O)C(=O)c2ccccc21,-,>125 µM
CC(C)Cc1nc(-c2ccc(S(=O)(=O)N(CC(C)C)C[C@@H](O)[C@H](Cc3ccccc3)NC(=O)O[C@H]3CO[C@H]4OCC[C@H]43)cc2)co1,MTT,>32.4 µM
O=C1c2ccccc2N(Cc2cccc(Cl)c2)S(=O)(=O)N1Cc1ccccc1,-,20.6–23.8 µM
CC(C)CN(C[C@@H](O)[C@H](Cc1ccccc1)NC(=O)O[C@H]1CO[C@H]2OCC[C@H]21)S(=O)(=O)c1ccc(-c2csc(Nc3ccncc3)n2)cc1,MTT,11.2 µM
O=C1/C(=C/c2cc(O)c(O)c(O)c2)CNC/C1=C\c1cc(O)c(O)c(O)c1,MTT,35 µM
CC1(C)c2nc(C(=O)NCc3ccc(F)cc3)c(O)c(=O)n2CCN1CC(=O)N1CCCC1,microscopy,>1 µM
Cc1cn([C@@H]2O[C@H](CO[Si](C)(C)C(C)(C)C)C3(OS(=O)(=O)C=C3N)[C@H]2O[Si](C)(C)C(C)(C)C)c(=O)n(CCCCCCO/C(=C/C(=O)c2ccccc2)c2ccccc2)c1=O,-,>100 µM
O=C1c2ccccc2N(Cc2ccccc2Cl)S(=O)(=O)N1COCc1ccccc1,-,23.4–32 µM
COc1cc([C@@H]2c3cc(O)c(OC)cc3C(=O)[C@@H](C)[C@H]2C)ccc1O,MTT,91.2 µg/mL
O=C(/C=C/c1ccc(Cl)c(Cl)c1)/C=C/c1ccc(Cl)c(Cl)c1,MTT,>200 µM
CC(=O)/C=C(/C)OCCCn1c(=O)c(C)cn([C@@H]2O[C@H](CO[Si](C)(C)C(C)(C)C)C3(OS(=O)(=O)C=C3N)[C@H]2O[Si](C)(C)C(C)(C)C)c1=O,-,≥130 µM

For reference, 2 entries again:

| SMILES | read by | result |
|---|---|---|
| Cc1ccc(NC(=O)CSc2ncnn2-c2ccc(Cl)cc2Cl)c(Br)c1 | MTT | 184 µM |
| CC(=O)/C=C(/C)OCCCn1c(=O)c(C)cn([C@@H]2O[C@H](CO[Si](C)(C)C(C)(C)C)C3(OS(=O)(=O)C=C3N)[C@H]2O[Si](C)(C)C(C)(C)C)c1=O | - | ≥130 µM |

Blank or dashed fields: not listed here. Lines come from different laboratories, so protocols vary. CCn: concentration that lowers growth or viability of the cells by n%.